# According to PubChem BioAssay AID977630 (Broad Institute, 2014):
# The list shows a part of the results, in another mix than the full data. Measured potencies and affinities stand elsewhere. Inconclusive results are not listed. Calls of active or inactive are those of the source.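 Rule for the calls: active = Normal-ribosome green reporter loss at least double humanized-ribosome red reporter loss, with overall culture growth inhibition under a set limit; inconclusive = no clear call, values can overlap the other calls; inactive = the rest.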
# Test: E. coli growth inhibition, wild-type GFP versus H38 humanized RFP strain – H38 mutant RFP vs wild-type GFP, cherry-pick, dose response (AID 977630)
# Settings: mixed culture, 24 h; at 50 µM (top of the series)
row,SMILES,"activity change, negative = inhibition"
1,O=[N+]([O-])c1cc([N+](=O)[O-])c(Nc2nnnn2CCO)c([N+](=O)[O-])c1,inactive: -0.21
